Compound potency records, mixed from different reports. Data source: NIAID ChemDB in PubChem.

Shared fields: growth or infection tests; organism: Mycobacterium avium

Two numbers with a dash give a range or band. Blank or dashed fields: not listed here. Conditions beyond the fields shown may differ between rows. A number after MIC or MFC names an inhibition level or a share of isolates.

SMILES | strain | endpoint | conditions | method | value
COc1ccc2oc(=S)n(-c3ccc(Cl)cc3)c(=S)c2c1 | MY330/88 | MIC | 21 d | - | 62.5 µM
Cc1ccc2occ(/C=N/c3nc4c(Cl)cccc4s3)c(=O)c2c1 | MY 80/72 | MIC | - | - | >100 µg/mL
N#Cc1cnc(C(N)=O)c(Nc2ccc(Cl)cc2)n1 | 80/72 | MIC | - | - | >100 µg/mL
Cc1ccc2occ(/C=N/NC(=O)c3ccncc3)c(=O)c2c1 | MY 80/72 | MIC | - | - | >100 µg/mL
CCCCOc1ccccc1NC(=O)OCCN(C)C | MY330/88 | MIC | - | - | 125 µM
Cc1nc2scc(-c3ccco3)c2c(=O)n1NC(=O)C1CCCCC1 | CNCTC MY330/88 | MIC | - | - | 215 µM
N#CCC(=O)N/N=C/c1coc2ccc([N+](=O)[O-])cc2c1=O | MY 80/72 | MIC | - | - | >50 µg/mL
CC(C)c1c(O)cc([C@H](N=C(N)N)C(=O)NCC(=O)O)cc1O | S-141 | MIC | - | - | 6.25 µg/mL
Cc1nc2scc(-c3ccco3)c2c(=O)n1NC(=O)c1ccc([N+](=O)[O-])cc1 | CNCTC MY330/88 | MIC | - | - | 22 µM
S=c1oc2ccc(Br)cc2c(=S)n1-c1ccc(Cl)cc1 | MY330/88 | MIC | 21 d | - | 32 µM
CCc1cc(C(N)=S)ccn1 | 3337-4 | MBC | - | - | 80 µg/mL
Cc1ccc(-n2c(=O)oc3ccc(C)cc3c2=S)cc1 | MY330/88 | MIC | 14 d | - | 1 µM
O=c1oc2ccc(Cl)cc2c(=O)n1-c1ccccc1 | CNCTC MY330/88 | MIC | - | - | 16 µM
N#Cc1cnc(C(N)=O)c(Nc2cccc(O)c2)n1 | 80/72 | MIC | - | - | >100 µg/mL
CCCCOc1cccc(NC(=O)OCCN2CCCCCC2)c1 | MY330/88 | MIC | - | - | 32 µM
CCCCCCCC(O)CC(=O)CCc1ccc(O)c(OC)c1 | - | MIC | - | - | 50 µg/mL
NC(=O)c1c(NC(=O)c2c(F)c(F)c(F)c(F)c2F)sc2c1CCOC2 | - | MIC | - | turbidity | >200 µM
COc1ccc2oc(=O)n(-c3cccc(Cl)c3)c(=S)c2c1 | MY330/88 | MIC | 21 d | - | 62.5 µM
Cc1nc2scc(-c3ccco3)c2c(=O)n1NC(=O)c1ccccc1 | CNCTC MY330/88 | MIC | - | - | 48 µM
Cc1c(F)c(N2CCNC(C)C2)cc2c1c(=O)c(C(=O)O)cn2C1CC1 | MS-6 | MIC | - | - | 0.5 µg/mL
O=C(N/N=C/c1coc2ccccc2c1=O)c1ccncc1 | MY 80/72 | MIC | - | - | >100 µg/mL
COc1ccc2c(=O)n(-c3ccc(C)cc3)c(=O)oc2c1 | CNCTC MY330/88 | MIC | - | - | 32 µM
CCCCCCCCOc1ccccc1NC(=O)OCCN1CCCCC1 | MY330/88 | MIC | - | - | 32 µM
Fc1ccc2oc(=S)n(-c3ccc(Cl)c(Cl)c3)c(=S)c2c1 | MY330/88 | MIC | 14 d | - | 16 µM
CN[C@@H]1[C@H](O[C@H]2[C@H](O[C@H]3[C@H](O)[C@@H](O)[C@H](N=C(N)N)[C@@H](O)[C@@H]3N=C(N)N)O[C@@H](C)[C@]2(O)C=O)O[C@@H](CO)[C@H](O)[C@H]1O | Strain #2 | MIC | - | - | 0.39 µg/mL
COc1ccc2oc(=S)n(-c3ccc(F)cc3)c(=S)c2c1 | MY330/88 | MIC | 14 d | - | 32 µM
CCCCCCCCCOc1ccccc1NC(=O)OCCN1CCOCC1 | MY330/88 | MIC | - | - | 32 µM
Cc1cccc(C(N)=Nc2nc(-c3ccccn3)cc3ccccc23)c1 | SK-47 | MIC | - | - | 2 µg/mL
O=c1c(/C=N/c2nc3ccc(Cl)cc3s2)coc2ccc(Cl)cc12 | MY 80/72 | MIC | - | - | >100 µg/mL
CC1(C)CC[C@]2(C(=O)O)CC[C@]3(C)C(CC[C@@H]4[C@@]5(C)C[C@H](O)CC(C)(C)[C@@H]5CC[C@]43C)[C@@H]2C1 | - | MIC | - | resazurin | 100 µg/mL
N#Cc1cnc(C(N)=O)c(Nc2cccc(Br)c2)n1 | 80/72 | MIC | - | - | >100 µg/mL
COC(=O)C1[C@@H](OC(=O)CC(CCCCCCCCCCC(C)C)OC(=O)CC(C)CC(=O)OC2OC(C)C(OC)C(OC)C2OC)CN(C)C([C@@H](OC2O[C@H](CN)[C@@H](O)[C@H]2O)C2OC(n3ccc(=O)[nH]c3=O)[C@H](O)[C@@H]2O)C(=O)N1C | 3 strains | MIC | - | - | 0.05–0.39 µg/mL
Cc1nc2scc(-c3ccco3)c2c(=O)n1N | CNCTC MY330/88 | MIC | - | - | 510 µM
Cc1ccc2c(=O)n(-c3ccc(F)cc3)c(=O)oc2c1 | CNCTC MY330/88 | MIC | - | - | 62.5 µM
Cc1nc2scc(-c3ccco3)c2c(=O)n1/N=C/c1cccs1 | CNCTC MY330/88 | MIC | - | - | 52 µM
CCCCCCOc1cccc(NC(=O)OCC[NH+]2CCCC2)c1 | MY330/88 | MIC | - | - | 32 µM
N#Cc1cnc(C(N)=O)c(Nc2cc(C(F)(F)F)cc(C(F)(F)F)c2)n1 | 80/72 | MIC | - | - | >100 µg/mL
CCN1CCc2c(sc(NC(=O)c3c(F)c(F)c(F)c(F)c3F)c2C(=O)NC)C1 | 2285 (S) | MIC | - | resazurin / turbidity | >100 µM
CC1COc2c(C3(N)CC3)c(F)cc3c(=O)c(C(=O)O)cn1c23 | 18 strains | MIC50 | - | - | 50 µg/mL
COc1ccc2c(=O)n(-c3ccccc3)c(=O)oc2c1 | CNCTC MY330/88 | MIC | - | - | 125 µM
N#Cc1cnc(C(N)=O)c(Nc2ccccc2)n1 | 80/72 | MIC | - | - | >100 µg/mL
C/C=N/n1c(C)nc2scc(-c3ccco3)c2c1=O | CNCTC MY330/88 | MIC | - | - | 58 µM
Cc1ccc2oc(=S)n(-c3ccccc3)c(=S)c2c1 | MY330/88 | MIC | 21 d | - | 4 µM
Cc1nc2scc(-c3ccco3)c2c(=O)n1NC(=O)c1ccc(Cl)cc1 | CNCTC MY330/88 | MIC | - | - | 8 µM
COc1ccc2oc(=O)n(-c3ccc(C)cc3)c(=S)c2c1 | MY330/88 | MIC | 21 d | - | 32 µM

The last 4 rows once more:

SMILES,strain,endpoint,conditions,method,value
C/C=N/n1c(C)nc2scc(-c3ccco3)c2c1=O,CNCTC MY330/88,MIC,-,-,58 µM
Cc1ccc2oc(=S)n(-c3ccccc3)c(=S)c2c1,MY330/88,MIC,21 d,-,4 µM
Cc1nc2scc(-c3ccco3)c2c(=O)n1NC(=O)c1ccc(Cl)cc1,CNCTC MY330/88,MIC,-,-,8 µM
COc1ccc2oc(=O)n(-c3ccc(C)cc3)c(=S)c2c1,MY330/88,MIC,21 d,-,32 µM